Three compounds from US7732458B2 (priority 2004, dated 2010) can be followed below.

A value given as a limit tells only on which side of the number the result lay.

The series relates to HIV-1 III B. The series can be described thus: Inhibition of HIV-induced MT4 cell pathological effects (CPE). Type of series: cell-based. Particulars: selective index TC50/IC50. The protocol:
HIV-1 III B comes from the USA; MT4 cell line comes from Japan.
To determine viral toxicity, HIV are diluted 10 fold in 8 serial [Chinese version is unclear, and this is an educated guess] and MT4 cell pathological effects are then observed in the culture solution of RPMI-1640. Calculated TCID50 is 10-6. The normal cell control group and virus control group are also performed. The samples with five concentrations per group that are diluted by 2 times and 100 μl AZT are added in cell or virus cultures. All concentrations of samples are performed in three repeated wells. The experiments are maintained at 37° C., 5 percent CO2 for 72 hours. Then the cell pathological effects (CPE) are observed under an inverted microscope. IC50 and selective index SI (TC50/IC50) are calculated in Table 7.
With `Cc1cn([C@H]2C[C@H](N=[N+]=[N-])[C@@H](CO)O2)c(=O)[nH]c1=O` [AZT, zidouvding, reference compound], the SI is reported as 5000.

Consider `COc1cc2cc[n+]3cc4c5c(ccc4c(C)c3c2cc1O)OCO5` [dehydroapocavidine], for which the SI is on record as 40.

`COc1cc2c(cc1OC)-c1c(C)c3ccc4c(c3c[n+]1CC2)OCO4` [dehydrocavidine]: the SI was more than 80.
